Molecular target: HIV Protease (Human immunodeficiency virus type 1 group M subtype B, UniProt P04585)
Test: Inhibition of HIV Protease
Type: biochemical
Details: Table 1, Inhibition of HIV Protease by compounds of formula drawing 46

SMILES: C=CC[C@H]1O[C@@H](c2ccc(COC)cc2)C[C@@H]1[C@@H](NS(=O)(=O)c1ccc(C)cc1)C(=O)O
- Ki: > 1 µM

SMILES: C=CC[C@H]1O[C@@H](Cc2ccccc2)C[C@@H]1[C@@H](NS(=O)(=O)c1ccc(C)cc1)C(=O)O
- Ki: 0.00041 µM

SMILES: O=C(O)[C@H](NS(=O)(=O)c1ccc(CO)cc1)[C@@H]1CO[C@@H](Cc2ccccc2)C1
- Ki: > 1 µM
